Measured values from several laboratories, pooled; numbers as filed in NIAID ChemDB.

Common to all: tests in culture; species: Mycobacterium avium; measure: MIC

An empty or dashed field is not shown. a–b is a range or a potency band. Conditions beyond the fields shown may differ between rows.

compound	strain or isolate	conditions	value
CCCCOc1ccc(NC(=S)Nc2ccc(N(C)C)cc2)cc1	299		2 µg/mL
CCCC(CC(=O)O)c1ccccc1			>100 µM
CCCOc1cccc(NC(=O)OCC[NH+]2CCCC2)c1	MY330/88		500 µM
CN1CCN(Cc2cccc(NC(=O)c3ccc(-c4ccccc4)cc3)c2)CC1	103317		8 µg/mL
CCCCCCOc1cccc(NC(=O)OCCN(C)C)c1	MY330/88		32 µM
CCCCCCOc1ccccc1NC(=O)OCC[NH+]1CCCC1	MY330/88		32 µM
Oc1ccc(Cl)cc1C(=S)Nc1ccc(Cl)c(Cl)c1	MY330/88		62.5 µM
CCCCCCCOc1ccc(NC(=O)OCCC[NH+]2CCCCC2)cc1	MY330/88		32 µM
CCCCCCCCCCN(CCCCCCCCCC)C(=O)NC(CCC(=O)O)(CCC(=O)O)CCC(=O)O	VA14		9 µg/mL
O=C(Nc1ccc(Cl)cc1)c1ccc(Cl)cc1OS(=O)(=O)c1ccccc1	330/88	21 d	8 µM
CCOc1c(N2CCC(C(C)(C)N)C2)c(F)cc2c(=O)c(C(=O)O)cn(C3CC3)c12	RG2		1 µg/mL
CCCCOc1cccc(NC(=O)OCCC[NH+]2CCCCC2)c1	MY330/88		125 µM
Cc1nc2scc(-c3ccco3)c2c(=O)n1/N=C/c1ccc(Cl)cc1	CNCTC MY330/88		10 µM
Cc1c(CN2CCSCC2)cc(-c2ccccc2)n1-c1ccccc1F	103317		>16 µg/mL
C/C=N/n1c(C)nc2scc(-c3ccco3)c2c1=O	CNCTC MY330/88		58 µM
O=C(Nc1ccc(Br)cc1)c1cc(Cl)ccc1OS(=O)(=O)c1ccccc1	330/88	14 d	32 µM
Oc1ccc(Cl)cc1C(=S)Nc1ccccc1	MY330/88		16 µM
CCCCCOc1ccccc1NC(=O)OCC[NH+]1CCCC1	MY330/88		62.5 µM
Cc1nc2scc(-c3ccco3)c2c(=O)n1/N=C/c1ccc(F)cc1	CNCTC MY330/88		12 µM
CCCCOc1ccc(NC(=O)OCCN2CCOCC2)cc1	MY330/88		125 µM
Cc1c(CN2CCN(C)CC2)cc(-c2ccc(Cl)cc2)n1-c1ccc(Cl)cc1	14 strains		0.4–3.1 µg/mL
CCCCCCCN(CCCCCCC)C(=O)NC(CCC(=O)O)(CCC(=O)O)CCC(=O)O	VA14		36 µg/mL
Cc1c(CN2CCSCC2)cc(-c2ccccc2)n1-c1ccc(F)cc1	103317		2 µg/mL
CCCCCCCCCCCCC(CCCCCCCCCCCC)NC(=O)NC(CCC(=O)O)(CCC(=O)O)CCC(=O)O	VA14		36 µg/mL
Cc1nc2scc(-c3ccco3)c2c(=O)n1NC(=O)c1ccc(F)cc1	CNCTC MY330/88		9 µM
CCCCCCCCCCCCOc1ccccc1NC(=O)OCCC[NH+]1CCCCC1	MY330/88		16 µM
O=C(/C=C/c1ccccc1)Nc1ccccc1CN1CCOCC1	103317		>16 µg/mL
O=C(Nc1cccc(Br)c1)c1cc(Cl)ccc1OS(=O)(=O)c1ccccc1	330/88	14 d	16 µM
CCCCCCCCCCCCCCCCC(C(=O)NN)c1ccccc1			50 µM
CCCCCOc1ccc(NC(=O)OCCN2CCCCCC2)cc1	MY330/88		32 µM
CCCCCCCCCN(CCCCCCCCC)C(=O)NC(CCC(=O)O)(CCC(=O)O)CCC(=O)O	VA14		13.5 µg/mL
Cc1ccc(C(=O)Nn2c(C)nc3scc(-c4ccco4)c3c2=O)cc1	CNCTC MY330/88		101 µM
O=C(Nc1ccc(F)cc1)c1ccc(Cl)cc1OS(=O)(=O)c1ccccc1	330/88	14 d	32 µM
CCCCOc1ccccc1NC(=O)OCCN(C)C	MY330/88		125 µM
CCCCOc1ccc(NC(=S)Nc2ccc(OCCN(CC)CC)cc2)cc1	299		16.6 µg/mL
C=CCS/C(N)=N\N=C\c1ccc(F)cc1	ATCC 19421		12.5 µg/mL
CCOc1cccc(NC(=O)OCCC[NH+]2CCCCC2)c1	MY330/88		500 µM
CCCCOc1cccc(NC(=O)OCC[NH+]2CCCC2)c1	MY330/88		125 µM
Oc1ccc(Cl)cc1C(=S)Nc1ccc(F)cc1	MY330/88		31 µM
Cc1c(CN2CCN(C)CC2)cc(-c2ccccc2)n1-c1cccc2ccccc12	103317		>16 µg/mL
CCCCCCOc1ccc(NC(=O)OCCC[NH+]2CCCCC2)cc1	MY330/88		32 µM
O=C(Nc1ccc(C(F)(F)F)cc1)c1cc(Cl)ccc1OS(=O)(=O)c1ccccc1	330/88	21 d	125 µM
CC(C)CCSc1ccc(NC(=S)Nc2ccc(SCCC(C)C)cc2)cc1	724		2.5 µg/mL
CCCCCOc1cccc(NC(=O)OCC[NH+]2CCCC2)c1	MY330/88		62.5 µM
CC(C)(C)n1cc(C(=O)O)c(=O)c2cc(F)c(N3CCNCC3)nc21	LR114R		0.06 µg/mL
CCCCCCCCCOc1cccc(NC(=O)OCC[NH+]2CCCC2)c1	MY330/88		32 µM
CCCCCCCC(CCCCCCC)NC(=O)NC(CCC(=O)O)(CCC(=O)O)CCC(=O)O	VA14		72 µg/mL
O=C(Nc1ccc(N2CCSCC2)cc1)c1ccc(-c2ccccc2)cc1	103317		>16 µg/mL
CCCSc1ccc(NC(=S)Nc2ccc(SCCC)cc2)cc1	724		>20 µg/mL
CCCCCCCCN(CCCCCCCC)C(=O)NC(CCC(=O)O)(CCC(=O)O)CCC(=O)O	VA14		36 µg/mL
OCCN1CCN(CC/C=C2\c3ccccc3Sc3ccc(Cl)cc32)CC1	T 10350		25 µg/mL
CCCCCCCCCCOc1cccc(NC(=O)OCC[NH+]2CCCC2)c1	MY330/88		16 µM
Cc1c(CN2CCN(C)CC2)cc(-c2cccc3ccccc23)n1-c1ccccc1	103317		16 µg/mL
CC(C)=CCCC(C)CCCC(C)CC(=O)O			31.25 µM
C(=C\c1ccccc1)/CCNc1cccc(N2CCSCC2)c1	103317		4 µg/mL
CCCCCCCCCCCCOc1cccc(NC(=O)OCCC[NH+]2CCCCC2)c1	MY330/88		32 µM
O=C(/C=C/c1ccccc1)Nc1ccc(CN2CCOCC2)cc1	103317		8 µg/mL
CCCCCCC(C/C(C)=C/CC[C@H](C)CCO)C(=O)O			62.5 µM
Cc1nc2scc(-c3ccco3)c2c(=O)n1/N=C/C1CC1	CNCTC MY330/88		59 µM
OCCN1CCN(CC/C=C2/c3ccccc3Sc3ccc(Cl)cc32)CC1	T 10350		25 µg/mL
NNC(=O)c1ccncc1	299		7.5 µg/mL
O=C(Nc1cccc(Br)c1)c1ccc(Cl)cc1OS(=O)(=O)c1ccccc1	330/88	21 d	500 µM
O=C(/C=C/c1ccccc1)Nc1ccc(Cn2ccnc2)cc1	103317		>16 µg/mL
CN(C)CC/C=C1\c2ccccc2Sc2ccc(Cl)cc21	T 10350		25 µg/mL
CCCCOc1ccccc1NC(=O)OCC[NH+]1CCCC1	MY330/88		250 µM
Clc1ccc(CNc2ccccc2N2CCOCC2)cc1	103317		4 µg/mL
CCCCSc1ccc(NC(=S)Nc2ccc(SCCCC)cc2)cc1	724		5 µg/mL
Cc1nc2scc(-c3ccco3)c2c(=O)n1/N=C/c1ccco1	CNCTC MY330/88		62 µM
CCCCCC(O)CC(=O)CCc1ccc(O)c(OC)c1			>100 µg/mL
CC(C)(C)c1ccc(NC(=S)Nc2ccc(C(C)(C)C)cc2)cc1	724		>20 µg/mL
CCCCCCCCCCCN(CCCCCCCCCCC)C(=O)NC(CCC(=O)O)(CCC(=O)O)CCC(=O)O	VA14		54 µg/mL
Cc1c(CN2CCN(C)CC2)cc(-c2ccccc2F)n1-c1ccccc1	103317		>16 µg/mL
CCC(C/C(C)=C/CC[C@H](C)CCO)C(=O)O			62.5 µM
COc1ccc(NC(=S)c2cc(Cl)ccc2O)cc1	MY330/88		>16 µM

For reference, 9 entries again:

| compound | strain or isolate | conditions | value |
|---|---|---|---|
| Cc1nc2scc(-c3ccco3)c2c(=O)n1/N=C/c1ccco1 | CNCTC MY330/88 |  | 62 µM |
| C(=C\c1ccccc1)/CCNc1cccc(N2CCSCC2)c1 | 103317 |  | 4 µg/mL |
| Oc1ccc(Cl)cc1C(=S)Nc1ccc(F)cc1 | MY330/88 |  | 31 µM |
| CCCCCCCCN(CCCCCCCC)C(=O)NC(CCC(=O)O)(CCC(=O)O)CCC(=O)O | VA14 |  | 36 µg/mL |
| CCCCCCC(C/C(C)=C/CC[C@H](C)CCO)C(=O)O |  |  | 62.5 µM |
| CCCC(CC(=O)O)c1ccccc1 |  |  | >100 µM |
| CCCCOc1ccc(NC(=S)Nc2ccc(N(C)C)cc2)cc1 | 299 |  | 2 µg/mL |
| CC(C)CCSc1ccc(NC(=S)Nc2ccc(SCCC(C)C)cc2)cc1 | 724 |  | 2.5 µg/mL |
| NNC(=O)c1ccncc1 | 299 |  | 7.5 µg/mL |